Pooled drug test results. Numbers come from NIAID ChemDB, via PubChem.

All rows: tests in culture; agent: HIV-1; read by: cytopathic effect / XTT; read-out: EC50

Lines come from different laboratories, so protocols vary. ECn: concentration that inhibits the pathogen or its effect by n%.

{"smiles": "O=S1(c2ccccc2)=NC(=S)Nc2ccccc21", "strain": "RF", "cells": "CEM + CEM-SS", "value": "1.39 µM"}
{"smiles": "CC(=O)Oc1ccc(S)c(S(=O)(=O)Nc2n[nH]c(N)n2)c1", "strain": "RF", "cells": "CEM", "value": ">200 µM"}
{"smiles": "Nc1ncnc2c1ncn2CCOCP(=O)(O)O", "strain": "IIIB", "cells": "MT-2", "value": "8.9 µM"}
{"smiles": "Cc1cc(S(=O)(=O)Nc2nc(N)nc(N3N=CCC3C)n2)c(SCC(=O)O)cc1Cl", "strain": "RF", "cells": "CEM", "value": ">200 µM"}
{"smiles": "O=S1(c2ccccc2)=NC(=S)Nc2ccccc21", "strain": "IIIB", "cells": "CEM + CEM-SS", "value": "1.39 µM"}
{"smiles": "Cc1cn([C@H]2C[C@H](N=[N+]=[N-])[C@@H](CO)O2)c(=O)[nH]c1=O", "strain": "Site-directed mutant", "mutations": "RT-K65R", "cells": "MT-2", "value": "0.5 µM"}
{"smiles": "Cc1cn([C@@H]2O[C@H](CO[Si](C)(C)C(C)(C)C)C3(OS(=O)(=O)C=C3N)[C@H]2O[Si](C)(C)C(C)(C)C)c(=O)n(C)c1=O", "strain": "IIIB", "mutations": "RT-Y181C", "cells": "CEM", "value": "3.2 µM"}
{"smiles": "Cc1cc(S(=O)(=O)NC2=NCCCN2)c(S)cc1Cl", "strain": "RF", "cells": "CEM", "value": "16.1 µM"}
{"smiles": "Cc1cn([C@H]2C=C[C@@H](CO)O2)c(=O)[nH]c1=O", "strain": "HXB2-D WT", "cells": "MT-2", "value": "6.7 µM"}
{"smiles": "Cc1cc(-c2ccc(N=Nc3c(S(=O)(=O)O)cc4cc(S(=O)(=O)O)cc(N)c4c3O)c(C)c2)ccc1N=Nc1c(S(=O)(=O)O)cc2cc(S(=O)(=O)O)cc(N)c2c1O", "strain": "RF", "cells": "CEM + CEM-SS", "value": "48 µM"}
{"smiles": "Cc1cc(S(=O)(=O)/N=C(\\NN)Nc2ccc(Cl)cc2)c(S)cc1Cl", "strain": "RF", "cells": "CEM", "value": ">10 µM"}
{"smiles": "Cc1ccnc2c1NC(=O)c1cccnc1N2C1CC1", "strain": "IIIB", "mutations": "RT-P236L", "cells": "CEM + CEM-SS", "value": "0.023 µM"}
{"smiles": "Cc1cn([C@H]2C[C@H](N=[N+]=[N-])[C@@H](CO)O2)c(=O)[nH]c1=O", "strain": "NL4-3", "mutations": "RT-V179D", "cells": "CEM + CEM-SS", "value": "0.005 µM"}
{"smiles": "O=S(=O)(Nc1nnc2n1-c1ccccc1CC2)c1ccc(Cl)cc1S", "strain": "RF", "cells": "CEM", "value": ">91.3 µM"}
{"smiles": "COc1c(C)c2c(c(O)c1C/C=C(\\C)CCC(=O)O)C(=O)OC2", "strain": "LAI", "cells": "MT-2", "value": ">1 µM"}
{"smiles": "COC(=O)CSc1cc(Cl)c(C)cc1S(=O)(=O)Nc1n[nH]c(N)n1", "strain": "RF", "cells": "CEM", "value": ">200 µM"}
{"smiles": "Fc1cccc(F)c1C1SCc2nc3ccccc3n21", "strain": "MN", "cells": "CEM + CEM-SS", "value": "1.5 µM"}
{"smiles": "Cc1cc(S(=O)(=O)Nc2nc(N)n(-c3ccccn3)n2)c(S)cc1Cl", "strain": "RF", "cells": "CEM", "value": "114.7 µM"}
{"smiles": "Cc1ccnc2c1NC(=O)c1cccnc1N2C1CC1", "strain": "UC38-R(RT-Y181C", "mutations": "RT-Y181C", "cells": "CEM + CEM-SS", "value": "13.8 µM"}
{"smiles": "CCC(Sc1cc(Cl)c(C)cc1S(=O)(=O)Nc1nc(N)nc(N(C)C)n1)C(=O)O", "strain": "RF", "cells": "CEM", "value": ">200 µM"}
{"smiles": "Nc1nc(N)c2ncn([C@H]3CO[C@@H](CO)O3)c2n1", "mutations": "RT-L74V", "cells": "MT-2", "value": "80 µM"}
{"smiles": "Cc1cn([C@H]2C[C@H](N=[N+]=[N-])[C@@H](CO)O2)c(=O)[nH]c1=O", "strain": "NL4-3", "mutations": "RT-A98G", "cells": "CEM + CEM-SS", "value": "0.01 µM"}
{"smiles": "Nc1nc2c(ncn2[C@H]2CO[C@@H](CO)O2)c(=O)[nH]1", "strain": "Site-directed mutant", "mutations": "RT-K65R Q151M", "cells": "MT-2", "value": ">44 µM"}
{"smiles": "Cc1cn([C@H]2C[C@H](N=[N+]=[N-])[C@@H](CO)O2)c(=O)[nH]c1=O", "strain": "UC781-R (RT-Y181C)", "mutations": "RT-Y181C", "cells": "CEM + CEM-SS", "value": "0.005 µM"}
{"smiles": "Fc1cccc(F)c1C1SCc2nc3ccccc3n21", "strain": "IIIB", "mutations": "RT-Y181C", "cells": "CEM + CEM-SS", "value": ">69 µM"}
{"smiles": "Cc1cn([C@H]2C[C@H](N=[N+]=[N-])[C@@H](CO)O2)c(=O)[nH]c1=O", "strain": "PM16", "cells": "CEM + CEM-SS", "value": "0.002 µM"}
{"smiles": "Cc1ccnc2c1NC(=O)c1cccnc1N2C1CC1", "strain": "NL4-3", "mutations": "RT-V108I", "cells": "CEM + CEM-SS", "value": "0.06 µM"}
{"smiles": "Nc1nc2c(ncn2[C@H]2CO[C@@H](CO)O2)c(=O)[nH]1", "strain": "LAI", "cells": "MT-2", "value": "2 µM"}
{"smiles": "c1ccc2c(c1)sc1nccn12", "strain": "IIIB", "cells": "PBMC", "value": "0.83 µM"}
{"smiles": "CCc1c(Sc2ccccn2)n(COCc2ccccc2)c(=O)[nH]c1=O", "strain": "IIIB", "mutations": "RT-Y181C", "cells": "CEM + CEM-SS", "value": "3.5 µM"}
{"smiles": "CC(C)(C)NC(=O)[C@@H]1C[C@@H]2CCCC[C@@H]2CN1C[C@@H](O)[C@H](Cc1ccccc1)NC(=O)[C@H](CC(N)=O)NC(=O)c1ccc2ccccc2n1", "strain": "IIIB", "cells": "MT-4", "value": "0.01 µM"}
{"smiles": "Cc1cn([C@H]2C[C@H](N=[N+]=[N-])[C@@H](CO)O2)c(=O)[nH]c1=O", "strain": "IIIB", "cells": "Macrophage", "value": "0.026 µM"}
{"smiles": "Fc1cccc(F)c1[C@@H]1SCc2nc3ccccc3n21", "strain": "IIIB", "cells": "CEM", "value": "5.55 µM"}
{"smiles": "Cc1cn([C@H]2C[C@H](N=[N+]=[N-])[C@@H](CO)O2)c(=O)[nH]c1=O", "strain": "RF", "value": "0.037 µM"}
{"smiles": "CC1=C(C(=O)Nc2ccc(Cl)c(C(=O)OC(C)C)c2)SCCO1", "strain": "IIIB", "cells": "CEM + CEM-SS", "value": "0.084 µM"}
{"smiles": "Nc1nc(NC2CC2)c2ncn([C@H]3C=C[C@@H](CO)C3)c2n1", "strain": "Site-directed mutant", "mutations": "RT-K65R Q151M", "cells": "MT-2", "value": ">25 µM"}
{"smiles": "O=C1N=S(=O)(c2ccccc2)c2ccccc2N1", "strain": "IIIB", "cells": "CEM + CEM-SS", "value": "155 µM"}
{"smiles": "Nc1nc(NC2CC2)c2ncn([C@H]3C=C[C@@H](CO)C3)c2n1", "strain": "Site-directed mutant", "mutations": "RT-K65R H221Y", "cells": "MT-2", "value": "2.15 µM"}
{"smiles": "Cc1ccnc2c1NC(=O)c1cccnc1N2C1CC1", "strain": "CLADE F", "cells": "PBMC", "setting": "clinical isolate", "value": "0.2 µM"}
{"smiles": "CC(C)=CCN1Cc2cc(Cl)cc3[nH]c(=S)n(c23)C[C@@H]1C", "strain": "IIIB", "mutations": "RT-L100I", "cells": "CEM", "value": "5.6 µM"}
{"smiles": "Cc1occc1C(=S)Nc1ccc(Cl)c(/C=N/OC(C)(C)C)c1", "strain": "Calanolide A-resistant (RT T139I)", "mutations": "RT-T139I", "cells": "CEM + CEM-SS", "value": "0.3 µM"}
{"smiles": "Cc1cn([C@H]2C[C@H](N=[N+]=[N-])[C@@H](CO)O2)c(=O)[nH]c1=O", "strain": "KELL", "cells": "CEM + CEM-SS", "value": "0.007 µM"}
{"smiles": "Cc1ccnc2c1NC(=O)c1cccnc1N2C1CC1", "strain": "NL4-3 (RT M184V)", "mutations": "RT-M184V", "cells": "CEM + CEM-SS", "value": "0.1 µM"}
{"smiles": "Cc1cn([C@H]2C[C@H](N=[N+]=[N-])[C@@H](CO)O2)c(=O)[nH]c1=O", "strain": "ROJO (syncytium-inducing)", "cells": "PBMC", "value": "0.01 µM"}

Repeating the first 4 entries:

{"smiles": "O=S1(c2ccccc2)=NC(=S)Nc2ccccc21", "strain": "RF", "cells": "CEM + CEM-SS", "value": "1.39 µM"}
{"smiles": "CC(=O)Oc1ccc(S)c(S(=O)(=O)Nc2n[nH]c(N)n2)c1", "strain": "RF", "cells": "CEM", "value": ">200 µM"}
{"smiles": "Nc1ncnc2c1ncn2CCOCP(=O)(O)O", "strain": "IIIB", "cells": "MT-2", "value": "8.9 µM"}
{"smiles": "Cc1cc(S(=O)(=O)Nc2nc(N)nc(N3N=CCC3C)n2)c(SCC(=O)O)cc1Cl", "strain": "RF", "cells": "CEM", "value": ">200 µM"}